pIC50: −log10 of the molar value.
Target: Phosphodiesterase (Crotalus adamanteus, UniProt J3SE37)
Assay: Inhibition of Serpentes (snake) venom phosphodiesterase using bis(p-nitrophenyl)phosphate as substrate incubated for 30 min prior to substrate addition by spectrophotometric analysis

Sequences of proteins named here, by UniProt entry; tags and fusion partners are left off. Residues count along the entry.
UniProt J3SE37, 1-563: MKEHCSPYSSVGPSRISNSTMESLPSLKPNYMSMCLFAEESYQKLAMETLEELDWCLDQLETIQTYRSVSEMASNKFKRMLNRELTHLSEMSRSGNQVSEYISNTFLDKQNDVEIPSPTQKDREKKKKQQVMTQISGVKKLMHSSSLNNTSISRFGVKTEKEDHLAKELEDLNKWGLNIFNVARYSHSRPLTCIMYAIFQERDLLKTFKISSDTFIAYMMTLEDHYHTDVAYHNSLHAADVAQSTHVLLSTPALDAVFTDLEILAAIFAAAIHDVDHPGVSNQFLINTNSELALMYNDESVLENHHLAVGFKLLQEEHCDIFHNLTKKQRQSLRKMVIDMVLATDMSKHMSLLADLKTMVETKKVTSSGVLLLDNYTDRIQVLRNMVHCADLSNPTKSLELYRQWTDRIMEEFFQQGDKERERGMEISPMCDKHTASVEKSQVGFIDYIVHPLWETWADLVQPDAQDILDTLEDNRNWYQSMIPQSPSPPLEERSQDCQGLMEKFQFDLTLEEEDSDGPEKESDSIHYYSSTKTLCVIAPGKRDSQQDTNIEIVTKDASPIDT

O=C(O)CN(CCN(CC(=O)O)CC(=O)O)CC(=O)O
pIC50: 4.13

Reference: BindingDB's records for 10.1007/s00044-011-9804-0, “Synthesis and enzyme inhibitory activities of some new pyrazole-based heterocyclic compounds” (2012)
